Data reported in patent US20150210738.
The exact form of at least one protein or probe is not confirmed.

Tests used:
Assay in all cases: FP
[1] = target: AVP (adenovirus proteinase) (UniProt P03252); settings: CITED McGrath 2001; purified recombinant protein; protein details: Cy3B at Cys199 in sliding assays
[2] = target: pVIc (C-terminal peptide of pVI) (Human adenovirus 2) (UniProt P03274); settings: CITED McGrath 2001 among footnotes; fluorescein-DNA, 20 mM Tris pH 8, 0.025% DDM; synthetic protein
AVP-pVIc complex = settings: CITED McGrath 2001; pH 7.5; 6 bp site; purified recombinant protein

Sequence | Kd [1] [nM] | Kd [2] [nM] | Kd (AVP-pVIc complex) [nM]
GACGACTAGGAT (double strand) [12-mer dsDNA] | 63.1 | 693 | –
GATTGCATGATTAGAGTGTGCTGGATGTGATAGTGA (double strand) [36-mer dsDNA] | – | – | 4.65
